Measurements taken from article PMC8705652, “Widespread Distribution and Adaptive Degradation of Microcystin Degrader (mlr-Genotype) in Lake Taihu, China” (Toxins, 2021).

Key:
Arthrobacter F7 = settings: cited from earlier work
Arthrobacter R4 = settings: cited from earlier work
Brevibacterium F3 = settings: cited from earlier work
Paucibacter DSMZ-16998 = settings: cited from earlier work
Sphingosinicella 7CY = settings: cited from earlier work
Sphingopyxis N5 = system: Sphingopyxis N5; set-up: species or system Sphingopyxis sp. strain N5
Rhodococcus C1 = settings: cited from earlier work
Arthrobacter C6 = settings: cited from earlier work
Sphingopyxis MB-E = settings: cited from earlier work

Substance	half-life (t1/2) (Arthrobacter F7) [h]	half-life (t1/2) (Arthrobacter R4) [h]	half-life (t1/2) (Brevibacterium F3) [h]	half-life (t1/2) (Paucibacter DSMZ-16998) [h]	half-life (t1/2) (Sphingosinicella 7CY) [h]	degradative activity within 24 h (Sphingopyxis N5)	half-life (t1/2) (Rhodococcus C1) [h]	half-life (t1/2) (Arthrobacter C6) [h]	Degradation Rate (Sphingopyxis MB-E)
MC-LF	140	170	170	140	~79.2	no significant degradative activity	190	190	6.25 × 10^−4) mg/(L·h)
MC-LW	170	140	220	170	~79.2	no significant degradative activity	140	190	6.25 × 10^−4) mg/(L·h)
